Patent publication US20230120677

Target: Clover-SNAP-25-mRuby2 FRET sensor (UniProt P60880)

WT ALC (full-length wild-type BoNT/A-LC)
Activity 1 (Clover/FRET) Timepoint 1: 10.2 Clover/FRET | Activity 2 (Clover/FRET) Timepoint 2: 11.9 Clover/FRET | Activity 3 (Clover/FRET) Timepoint 3: 10.6 Clover/FRET | Activity 4 (Clover/FRET) Timepoint 4: 6.98 Clover/FRET | Activity 5 (Clover/FRET) Timepoint 5: 9.19 Clover/FRET | Avg Activity: 9.78 | fluorescence intensity ratio between Clover and mRuby2, co-expression in E. coli: 13
